Data on five substances can be found in US20140107015A1, “PHARAMACEUTICAL COMPOSITION FOR PREVENTING OR TREATING HUMAN IMMUNODEFICIENCY VIRUS” (priority 2012, published 2014).

The target in data set [1] is HIV-1 reverse transcriptase (UniProt P04585). Particulars: mean of HIV-1RF and HIV-1IIIB.
Data set [2] concerns C8166 cell lines infected with HIV-1IIIB. Particulars: 0.5 mg/ml; 48 hours after HIV-1IIIB infection; MTT; untreated cells = 100%.
Data set [3] deals with T1, HIV-1 reverse transcriptase (Human immunodeficiency virus type 1 group M subtype B, UniProt P05959).
T1 construct: endogenous in cells; host or cells: C8166 and CEM-SS cells infected with HIV-1RF (lysates)
The class given is biochemical. Particulars: 0.05 mg/ml and 0.1 mg/ml.

Regarding “Chitosan oligomer-(Threonine-Tyrosine) [COS-TY]”, the “IC50 (RT inhibition)” value in data set [1] was found to be 192 µg/mL.
Take Chitosan oligomer-Aspartic acid [COS-D]: the “IC50 (RT inhibition)” value in data set [1] worked out at 213 µg/mL.
Regarding Chitosan oligomer-Leucine [COS-L], the “cell viability of HIV-1-infected C8166 cells” value in data set [2] came to 70.4%.
Regarding Chitosan oligomer-Tyrosine [COS-Y], the “IC50 (RT inhibition)” value in data set [1] amounted to 213 µg/mL. Further, in data set [3], the “reverse transcriptase activity at low concentrations” value was “inhibited even at the above low concentrations”.
With Chitosan oligomer-Glutamic acid [COS-E], the “cell viability of HIV-1-infected C8166 cells” value in data set [2] is recorded as 81.3%.
